Assay results from patent publication US20250002954A1, “Novel Compound, Use Thereof, and Method for Producing Same, and Compound-Containing Composition, Method for Producing 4-Trehalosamine, and Microorganism” (Microbial Chemistry Research Foundation, priority 2021, published 2025).

Tested on: 12 kinds of microorganisms
Test: Assimilation by 12 kinds of microorganisms (proliferation in culture fluids free of carbon source)
Type: cell-based
Conditions: 0.4% (PA 0.1%) in culture fluids free of carbon source, 5 days, A620

Row | SMILES | proliferation of microorganisms (assimilation)
1 | N[C@H]1[C@H](O)[C@@H](O)[C@@H](O[C@H]2O[C@H](CO)[C@@H](O)[C@H](O)[C@H]2O)O[C@@H]1CO [4-trehalosamine] | activated proliferation was not observed with any of the 12 kinds of microorganisms
2 | OC[C@H]1O[C@H](O[C@H]2O[C@H](CO)[C@@H](O)[C@H](O)[C@H]2O)[C@H](O)[C@@H](O)[C@@H]1O [trehalose, reference compound] | activated proliferation was observed with 6 kinds of bacteria
